PubChem BioAssay AID1259414, Drosophila RNAi Screening Center – 2018
The deposit covers about 24,000 reagents; this is a random part of those with a known target gene and a result. Of all reagents, about 1,210 (5%) were called active. 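Inactive calls also include excluded dsRNAs with several or no targets, genes unexpressed in JW18, and well A1, regardless of score.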 Entries without a mark were called inactive. Reagents against one gene are numbered here.

Assay: 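Genome-wide screen for host control of endosymbiont load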 (primary screen)
System: Drosophila JW18 cells infected with Wolbachia
Reagent: long dsRNA against Drosophila genes, 0.25 µg dsRNA per well of a 384-well plate
Time to read-out: 5 days
Treatment: cells persistently infected with Wolbachia before knock-down; no added drug
Detection: 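Imaged fluorescence in situ signal for Wolbachia 23S rRNA per DAPI-counted host cell, given as a robust z-score within each plate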
Direction: Wolbachia per cell robust z: higher = more Wolbachia per host cell than the plate typical
Call rule: 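Hit when robust z is 1.5 or more, or -1.5 or less, in at least two of three replicates; excludes dsRNAs with several or no targets, genes not expressed in JW18 and well A1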

| gene | reagent | Wolbachia per cell robust z, rep 1 | Wolbachia per cell robust z, rep 2 | Wolbachia per cell robust z, rep 3 |
| --- | --- | --- | --- | --- |
| Slimp (Seryl-tRNA synthetase-like insect mitochondrial protein) | 1 | 0.554 | 0.337 | 0.521 |
| CG6441 | 1 | 0.383 | -6.33 | -0.72 |
| ubl (ubiquitin like) | 1 | -1.56 | -1.19 | -0.345 |
| CG18094 | 1 | -0.503 | -0.259 | 0.585 |
| CG43121 | 1 | -7.38 | 0.178 | 0.399 |
| cnc (cap-n-collar) | 1 | -0.83 | 1.06 | 0.425 |
| cnc (cap-n-collar) | 2 | 0.716 | -0.841 | -0.105 |
| cnc (cap-n-collar) | 3 | 0.383 | -0.053 | -0.638 |
| cnc (cap-n-collar) | 4 | -2.11 (active) | 0.563 | -3.78 |
| cnc (cap-n-collar) | 5 | -1.28 (active) | -2.91 | -2.51 |
| CG32855 | 1 | -1.37 | -0.0799 | -8.15 |
| Coq6 (Coenzyme Q6) | 1 | 0.142 | 0.786 | 0.0263 |
| Coq6 (Coenzyme Q6) | 2 | -1 | -0.11 | -1.17 |
| CG41378 | 1 | -0.0905 | -0.453 | -0.788 |
| Sema1a (Semaphorin 1a) | 1 | 0.0972 | 0.694 | 0.267 |
| Ir60e (Ionotropic receptor 60e) | 1 | -1.34 | 1.28 | -0.385 |
| Stacl (Stac-like) | 1 | 3.97 | 4.1 | 5.95 |
| Stacl (Stac-like) | 2 | 0.39 | 1.18 | -0.717 |
| Stacl (Stac-like) | 3 | -3.99 | 0.446 | 0.0492 |
| Stacl (Stac-like) | 4 | -4.98 | -4.71 | -1.09 |
| Stacl (Stac-like) | 5 | 0.557 | -4.62 | -0.871 |
| Stacl (Stac-like) | 6 | 0.403 | -0.0955 | 0.135 |
| Stacl (Stac-like) | 7 | -1.44 | -0.0543 | 0.242 |
| Gasp | 1 | -0.937 | -0.557 | 0.951 |
| side-VIII (sidestep VIII) | 1 | 0.0765 | 0.906 | 1.11 |
| side-VIII (sidestep VIII) | 2 | 0.706 | 1.54 | 1.43 |
| side-VIII (sidestep VIII) | 3 | -4.88 | -0.725 | 0.939 |
| side-VIII (sidestep VIII) | 4 | 0.455 | 0.315 | 0.908 |
| side-VIII (sidestep VIII) | 5 | -0.447 | 0.517 | 0.317 |
| Fad2 | 1 | 1.92 | 2.28 | 1.97 |
| Fad2 | 2 | -0.254 | 0.187 | 0.528 |
| Cox11 (Cytochrome c oxidase copper chaperone COX11) | 1 | 0.635 | 0.118 | -1.32 |
| CG10185 | 1 | -0.472 | -0.523 | -0.168 |
| wrapper | 1 | -0.71 | 0.31 | 0.257 |
| Set2 (SET domain containing 2) | 1 | 0.853 | -10.3 | -0.0388 |
| CG10859 | 1 | 0.999 | 0.116 | 0.602 |
| Nup98-96 (Nucleoporin 98-96kD) | 1 | 1.26 | 1.07 | -2.5 |
| Nup98-96 (Nucleoporin 98-96kD) | 2 | 0.953 | 0.62 | 1.42 |
| hpRNA:CR18854 (hairpin RNA:CR18854) | 1 | -0.951 | 0.595 | -0.4 |
| hpRNA:CR18854 (hairpin RNA:CR18854) | 2 | 0.163 | -0.315 | -1.77 |
| CG5188 | 1 | -0.462 | -0.574 | 0.0225 |
| CG17068 | 1 | 1.4 | -0.223 | -3.03 |
| CG33454 | 1 | 0.53 | 0.6 | 0.413 |
| CG33454 | 2 | -5.8 | -0.36 | -1.4 |
| L (Lobe) | 1 | 0.0856 | 0.0816 | -1.55 |
| L (Lobe) | 2 | 0.373 | -0.275 | 0.627 |
| L (Lobe) | 3 | -0.353 | -1.1 | -0.456 |

Entries above marked active (2):
| gene | reagent | Wolbachia per cell robust z, rep 1 | Wolbachia per cell robust z, rep 2 | Wolbachia per cell robust z, rep 3 |
| --- | --- | --- | --- | --- |
| cnc (cap-n-collar) | 4 | -2.11 (active) | 0.563 | -3.78 |
| cnc (cap-n-collar) | 5 | -1.28 (active) | -2.91 | -2.51 |
